Results published in patent publication US8536319B2, “Compounds and methods for detecting ricin and uses thereof” (dated 2013).

Tests used:
[1] = Thermal denaturation experiments
[2] = test system: A-14 / ab-14 (substrate and product of the RTA reaction); assay: One pot RTA assay, substrate A-14 (product ab-14)
A-14 = assay: Hybridization of molecular beacons with model sequence A-14 (fluorescence); details: for fluorescence of duplex enhanced relative to beacon hairpin alone: duplex with A-14, 1.2:1 ratio, pH 7.6, λex 490 nm
dab-14 = assay: Hybridization of molecular beacons with model sequence dab-14 (fluorescence); details: for fluorescence of duplex enhanced relative to beacon hairpin alone: duplex with dab-14, 1.2:1 ratio, pH 7.6, λex 490 nm; for discrimination between A-14 and dab-14: hybridization of model sequences, pH 7.6
[3] = test system: A14-2dA / product of the RTA reaction; assay: One pot RTA assay, substrate A14-2dA

Substance	Tm of heteroduplex ([1]; MB1:A-14 heteroduplex, could not be fitted)	enhancement of fluorescence for A-14 relative to ab-14 ([2]; one pot system) [%]	discrimination factor ([2]; one pot system, A-14 relative to ab-14)	fluorescence of duplex enhanced relative to beacon hairpin alone (A-14) [fold]	discrimination factor (A-14; model system)	enhancement of fluorescence for A-14 relative to abasic sequence (A-14; model system) [%]	dependence of enhancement in fluorescent intensity on salt concentration (A-14; λex=490 nm, λem=515 nm)	fluorescence of duplex enhanced relative to beacon hairpin alone (dab-14)	discrimination between A-14 and dab-14 (dab-14)	Tm of duplex ([1]; dab-14:MB2 duplex, 20 mM triethanolamine pH 7.6, 100 mM KCl, 10 mM MgCl2) [°C]	enhancement of fluorescence of the product relative to A14-2dA ([3]; one pot system) [%]	discrimination of the product ([3]; one pot, A14-2dA as the substrate)	enhancement of fluorescence of ab-14 (product) relative to A-14 ([2]; one pot system) [%]	increase in intensity of product over that of the substrate ([2]; substrate not specified)	dependence of discrimination on monovalent salt concentration (dab-14; 50, 100 and 200 mM KCl, A-14 vs dab-14)	discrimination by pyrene monomer emission (dab-14; excitation at 348 nm, A-14 vs dab-14)	enhancement of fluorescence of abasic sequence relative to A-14 (dab-14; model system) [%]
5′-6-FAM-d(CGCGCTCTCGCGCG) (SEQ ID NO:1)-BHQ1-3′	exceeds 80 °C	20	1.22	4	1.4	40	independent of the salt concentration	almost no enhancement	Complete discrimination	–	–	–	–	–	–	–	–
5′-FAM-d(CGCGCTCPyCGCGCG)-Dab-3′	–	–	–	2	–	–	–	4 fold	lower with the MB2 beacon than with MB1	69	40	1.4	20	20-25%	decrease with increasing salt concentration	no discrimination	40
